{
  "source": "patent US20250296937A1",
  "about": "“CYCLIC BISBENZYL TETRAHYDROISOQUINOLINE COMPOUND, AND PREPARATION METHOD THEREFOR AND USE THEREOF” (Shanghai Institute of Materia Medica, Chinesse Academy of …, priority 2021, published 2025)",
  "tested_on": "2019 novel coronavirus (SARS-CoV-2) original strain",
  "test": "Replication inhibitory activity against SARS-CoV-2 original strain in Vero E6 cells (qRT-PCR)",
  "type": "cell-based",
  "conditions": "SI = Cytotoxicity CC50 value/Inhibition against viral replication of original strain EC50 value",
  "data": [
    {"molecule": "COc1cc2c3cc1Oc1c(OC)c(OC)cc4c1[C@H](Cc1ccc(cc1)Oc1cc(ccc1C1CC1)C[C@H]3N(C)CC2)N(C)CC4", "note": "[Compound 38]", "values": [
      {"measurement": "Therapeutic index SI", "value": ">2"}
    ]},
    {"molecule": "COc1cc2c3cc1Oc1c(OC)c(OC)cc4c1[C@H](Cc1ccc(cc1)Oc1cc(ccc1C(=O)NC1CCC1)C[C@H]3N(C)CC2)N(C)CC4", "note": "[Compound 50]", "values": [
      {"measurement": "Therapeutic index SI", "value": ">30"}
    ]},
    {"molecule": "CCCCCNC(=O)c1ccc2cc1Oc1ccc(cc1)C[C@H]1c3c(cc(OC)c(OC)c3Oc3cc4c(cc3OC)CCN(C)[C@@H]4C2)CCN1C", "note": "[Compound 37]", "values": [
      {"measurement": "Therapeutic index SI", "value": ">2"}
    ]},
    {"molecule": "COc1cc2c3cc1Oc1c(OC)c(OC)cc4c1[C@H](Cc1ccc(cc1)Oc1cc(ccc1C(=O)C1CC1)C[C@H]3N(C)CC2)N(C)CC4", "note": "[Compound 54]", "values": [
      {"measurement": "Therapeutic index SI", "value": ">2"}
    ]},
    {"molecule": "COc1cc2c3cc1Oc1c(OC)c(OC)cc4c1[C@H](Cc1ccc(cc1)Oc1cc(ccc1C(C)=O)C[C@H]3N(C)CC2)N(C)CC4", "note": "[Compound 19]", "values": [
      {"measurement": "Therapeutic index SI", "value": ">20"}
    ]},
    {"molecule": "C=C(C)c1ccc2cc1Oc1ccc(cc1)C[C@H]1c3c(cc(OC)c(OC)c3Oc3cc4c(cc3OC)CCN(C)[C@@H]4C2)CCN1C", "note": "[Compound 34]", "values": [
      {"measurement": "Therapeutic index SI", "value": ">6"}
    ]},
    {"molecule": "COc1cc2c3cc1Oc1c(OC)c(OC)cc4c1[C@H](Cc1ccc(cc1)Oc1cc(ccc1C(=O)NC1CC1)C[C@H]3N(C)CC2)N(C)CC4", "note": "[Compound 6]", "values": [
      {"measurement": "Therapeutic index SI", "value": ">50"}
    ]},
    {"molecule": "CNC(=O)c1ccc2cc1Oc1ccc(cc1)C[C@H]1c3c(cc(OC)c(OC)c3Oc3cc4c(cc3OC)CCN(C)[C@@H]4C2)CCN1C", "note": "[Compound 5]", "values": [
      {"measurement": "Therapeutic index SI", "value": "10-30"}
    ]},
    {"molecule": "COc1cc2c3cc1Oc1c(OC)c(OC)cc4c1[C@H](Cc1ccc(cc1)Oc1cc(ccc1C(C)O)C[C@H]3N(C)CC2)N(C)CC4", "note": "(stereo partly shown) [Compound 40]", "values": [
      {"measurement": "Therapeutic index SI", "value": ">30"}
    ]},
    {"molecule": "COc1cc2c3cc1Oc1c(OC)c(OC)cc4c1[C@H](Cc1ccc(cc1)Oc1cc(cc5[nH]c(=O)oc15)C[C@H]3N(C)CC2)N(C)CC4", "note": "[Compound 17]", "values": [
      {"measurement": "Therapeutic index SI", "value": ">10"}
    ]},
    {"molecule": "COc1cc2c3cc1Oc1c(OC)c(OC)cc4c1[C@H](Cc1ccc(cc1)Oc1cc(ccc1C(=O)NCCOCCO)C[C@H]3N(C)CC2)N(C)CC4", "note": "[Compound 55]", "values": [
      {"measurement": "Therapeutic index SI", "value": ">20"}
    ]},
    {"molecule": "COc1cc2c3cc1Oc1c(OC)c(OC)cc4c1[C@H](Cc1ccc(cc1)Oc1cc(ccc1C(N)=O)C[C@H]3N(C)CC2)N(C)CC4", "note": "[Compound 4]", "values": [
      {"measurement": "Therapeutic index SI", "value": ">100"}
    ]},
    {"molecule": "COc1cc2c3cc1Oc1c(OC)c(OC)cc4c1[C@H](Cc1ccc(cc1)Oc1cc(ccc1C)C[C@H]3N(C)CC2)N(C)CC4", "note": "[Compound 35]", "values": [
      {"measurement": "Therapeutic index SI", "value": ">2"}
    ]},
    {"molecule": "COc1cc2c3cc1Oc1c(OC)c(OC)cc4c1[C@H](Cc1ccc(cc1)Oc1cc(ccc1C(=O)OCCOCCO)C[C@H]3N(C)CC2)N(C)CC4", "note": "[Compound 58]", "values": [
      {"measurement": "Therapeutic index SI", "value": ">50"}
    ]},
    {"molecule": "COc1cc2c3cc1Oc1c(OC)c(OC)cc4c1[C@H](Cc1ccc(cc1)Oc1cc(ccc1C(=O)Nc1ccccc1)C[C@H]3N(C)CC2)N(C)CC4", "note": "[Compound 45]", "values": [
      {"measurement": "Therapeutic index SI", "value": ">2"}
    ]},
    {"molecule": "oxyacanthine hydrochloride [reference compound]", "values": [
      {"measurement": "Therapeutic index SI", "value": "<3"}
    ]},
    {"molecule": "COc1cc2c3cc1Oc1c(OC)c(OC)cc4c1[C@H](Cc1ccc(cc1)Oc1cc(ccc1CO)C[C@H]3N(C)CC2)N(C)CC4", "note": "[Compound 9]", "values": [
      {"measurement": "Therapeutic index SI", "value": ">33"}
    ]},
    {"molecule": "COc1ccc(NC(=O)c2ccc3cc2Oc2ccc(cc2)C[C@H]2c4c(cc(OC)c(OC)c4Oc4cc5c(cc4OC)CCN(C)[C@@H]5C3)CCN2C)cc1", "note": "[Compound 52]", "values": [
      {"measurement": "Therapeutic index SI", "value": ">10"}
    ]},
    {"molecule": "COc1cc2c3cc1Oc1c(OC)c(OC)cc4c1[C@H](Cc1ccc(cc1)Oc1cc(ccc1C(=O)NC(C)C)C[C@H]3N(C)CC2)N(C)CC4", "note": "[Compound 48]", "values": [
      {"measurement": "Therapeutic index SI", "value": ">10"}
    ]},
    {"molecule": "COc1cc2c3cc1Oc1c(OC)c(OC)cc4c1[C@H](Cc1ccc(cc1)Oc1cc(ccc1C(=O)NC15CC6CC(CC(C6)C1)C5)C[C@H]3N(C)CC2)N(C)CC4", "note": "[Compound 49]", "values": [
      {"measurement": "Therapeutic index SI", "value": ">5"}
    ]},
    {"molecule": "COc1cc2c3cc1Oc1c(OC)c(OC)cc4c1[C@H](Cc1ccc(cc1)Oc1cccc(c1)C[C@H]3N(C)CC2)N(C)CC4", "note": "[Compound 33]", "values": [
      {"measurement": "Therapeutic index SI", "value": ">10"}
    ]},
    {"molecule": "COC(=O)c1ccc2cc1Oc1ccc(cc1)C[C@H]1c3c(cc(OC)c(OC)c3Oc3cc4c(cc3OC)CCN(C)[C@@H]4C2)CCN1C", "note": "[Compound 3]", "values": [
      {"measurement": "Therapeutic index SI", "value": ">50"}
    ]},
    {"molecule": "COc1cc2c3cc1Oc1c(OC)c(OC)cc4c1[C@H](Cc1ccc(cc1)Oc1cc(ccc1C(=O)NC1CCCC1)C[C@H]3N(C)CC2)N(C)CC4", "note": "[Compound 22]", "values": [
      {"measurement": "Therapeutic index SI", "value": ">6"}
    ]},
    {"molecule": "CCCCNC(=O)Oc1ccc2cc1Oc1ccc(cc1)C[C@H]1c3c(cc(OC)c(OC)c3Oc3cc4c(cc3OC)CCN(C)[C@@H]4C2)CCN1C", "note": "[Compound 2]", "values": [
      {"measurement": "Therapeutic index SI", "value": "30-50"}
    ]},
    {"molecule": "COc1cc2c3cc1Oc1c(OC)c(OC)cc4c1[C@H](Cc1ccc(cc1)Oc1cc(ccc1C(=O)Nc1cccnc1)C[C@H]3N(C)CC2)N(C)CC4", "note": "[Compound 51]", "values": [
      {"measurement": "Therapeutic index SI", "value": ">10"}
    ]}
  ]
}
